Compound potency records, mixed from different reports. Data source: NIAID ChemDB in PubChem.

All rows: enzyme or target tests; species: HIV-1; protein: Reverse transcriptase; endpoint: IC50

Conditions beyond the fields shown may differ between rows. ICn is the concentration giving n% inhibition. An empty or dashed field is not shown. Two numbers with a dash give a range or band.

{"SMILES": "CC(C)(C)c1ccc(-n2nnnc2SCC(=O)Nc2ccc(C(=O)Nc3ccc(CCC(=O)O)cc3)cc2Cl)c(Cl)c1", "method": "PicoGreen / fluorescence", "strain or isolate": "WT", "result": "<1 µM"}
{"SMILES": "CN(C)c1ccc2c(c1)CN(c1nn3c(C4CC4)nnc3c3ccccc13)CC2", "method": "RT activity / fluorescence", "strain or isolate": "IIIB", "result": "0.06 µM"}
{"SMILES": "CC(=O)Nc1ccc2[nH]c(C(=O)N3CCN(c4ncccc4NC(C)C)CC3)cc2c1", "method": "nucleotide incorporation", "result": "<100 µM"}
{"SMILES": "COc1ccc2c(c1)CN(c1nn3c(C(C)C)nnc3c3ccccc13)CC2", "method": "RT activity / fluorescence", "strain or isolate": "KER2008", "result": "0.44 µM"}
{"SMILES": "Cc1nnc(SCC(=O)Nc2ccc(-c3ccc(OCCN4CCCC4)cc3)cc2Cl)n1-c1ccc(C2CC2)cc1Cl", "method": "PicoGreen / fluorescence", "changes": "RT-K103 Y181C", "result": "<1 µM"}
{"SMILES": "CCN1c2ncc(CCOc3ccc(-c4nc(C(=O)O)cs4)cc3)cc2C(=O)N(C)c2cccnc21", "method": "nucleotide incorporation / radiometric", "strain or isolate": "IIIB", "result": "<0.05 µM"}
{"SMILES": "CC(C)(C)c1ccc(-n2nnnc2SCC(=O)Nc2ccc(NC(=O)Cc3c[nH]c4ccccc34)cc2Cl)c(Cl)c1", "method": "PicoGreen / fluorescence", "strain or isolate": "WT", "result": "<1 µM"}
{"SMILES": "Cc1nnc2ccc(N3CCc4ccccc4C3)nn12", "method": "RT activity / fluorescence", "strain or isolate": "98US_MSC5016", "result": "16.5 µM"}
{"SMILES": "CCN1c2ncc(CCOc3ccc(-c4cc(C(=O)O)on4)cc3)cc2C(=O)N(C)c2cccnc21", "method": "nucleotide incorporation / radiometric", "strain or isolate": "IIIB", "result": "<0.05 µM"}
{"SMILES": "COc1ccc2c(c1)CCN(c1nn3c(C4CC4)nnc3c3ccccc13)C2", "method": "RT activity / fluorescence", "strain or isolate": "KER2008", "result": "1.13 µM"}
{"SMILES": "CC(C)(C#Cc1ccc(NC(=O)CSc2nnnn2-c2ccc(C3CC3)cc2Cl)c(Cl)c1)C(=O)N1CCC(C(=O)O)CC1", "method": "PicoGreen / fluorescence", "changes": "RT-K103 Y181C", "result": "<1 µM"}
{"SMILES": "CC(C)c1nnc2c3ccccc3c(N3CCc4ccc(N)cc4C3)nn12", "method": "RT activity / fluorescence", "strain or isolate": "KER2008", "result": "0.23 µM"}
{"SMILES": "CC(C)Nc1cccnc1N1CCN(C(=O)c2cc3cc4c(cc3[nH]2)OCO4)CC1", "method": "nucleotide incorporation", "result": "<100 µM"}
{"SMILES": "CN(O)C(=O)COC(C)(C)C#Cc1ccc(NC(=O)CSc2nnnn2-c2ccc(C(C)(C)C)cc2Cl)c(Cl)c1", "method": "PicoGreen / fluorescence", "strain or isolate": "WT", "result": "<1 µM"}
{"SMILES": "Nc1ccc2c(c1)CN(c1nn3c(-c4cccs4)nnc3c3ccccc13)CC2", "method": "RT activity / fluorescence", "strain or isolate": "98US_MSC5016", "result": "4.29 µM"}
{"SMILES": "CCN1c2ncc(CCOc3ccc(-c4ccc(Cl)c(C(=O)O)c4)cc3C)cc2C(=O)N(C)c2cccnc21", "method": "nucleotide incorporation / radiometric", "strain or isolate": "IIIB", "changes": "RT-K103N Y181C", "result": "0.05–0.1 µM"}
{"SMILES": "CNC(=O)NC(C)(C)C#Cc1ccc(NC(=O)CSc2nnnn2-c2ccc(C3CC3)cc2Cl)c(Cl)c1", "method": "PicoGreen / fluorescence", "changes": "RT-K103 Y181C", "result": "<1 µM"}
{"SMILES": "CCN1c2ncc(CCOc3ccc(C(=O)N(C)Cc4ccc(C(=O)O)cc4)cc3C)cc2C(=O)N(C)c2cccnc21", "method": "nucleotide incorporation / radiometric", "strain or isolate": "IIIB", "result": "<0.05 µM"}
{"SMILES": "CCc1cc(NCc2nc3c(C)ccc(C)c3o2)c(=O)[nH]c1C", "method": "nucleotide incorporation", "changes": "RT-Y181C", "result": "34.5 µM"}
{"SMILES": "Nc1cnc2c(c1)CN(c1nn3c(C4CC4)nnc3c3ccccc13)CC2", "method": "RT activity / fluorescence", "strain or isolate": "IIIB", "result": ">100 µM"}
{"SMILES": "CC(C)(C#Cc1ccc(NC(=O)CSc2nnnn2-c2ccc(C3CC3)cc2Cl)c(Cl)c1F)OCCO", "method": "PicoGreen / fluorescence", "strain or isolate": "WT", "result": "<1 µM"}
{"SMILES": "CCNc1cccnc1N(C)CCCCCCN(C)C(=O)c1cc2ccccc2[nH]1", "method": "nucleotide incorporation", "result": "<100 µM"}
{"SMILES": "CC(C)(C#Cc1ccc(NC(=O)CSc2nnnn2-c2cc(F)ccc2Cl)c(Cl)c1)C(=O)O", "method": "PicoGreen / fluorescence", "changes": "RT-K103 Y181C", "result": "<1 µM"}
{"SMILES": "CCCNc1cccnc1N1CCN(C(=O)c2cc3cc(F)ccc3[nH]2)CC1", "method": "nucleotide incorporation", "result": "<100 µM"}

3 of the rows above, restated:

SMILES	method	strain or isolate	changes	result
Nc1cnc2c(c1)CN(c1nn3c(C4CC4)nnc3c3ccccc13)CC2	RT activity / fluorescence	IIIB	-	>100 µM
CC(C)(C#Cc1ccc(NC(=O)CSc2nnnn2-c2ccc(C3CC3)cc2Cl)c(Cl)c1)C(=O)N1CCC(C(=O)O)CC1	PicoGreen / fluorescence	-	RT-K103 Y181C	<1 µM
Cc1nnc2ccc(N3CCc4ccccc4C3)nn12	RT activity / fluorescence	98US_MSC5016	-	16.5 µM